Pooled drug test results. Numbers come from NIAID ChemDB, via PubChem.

ICn: concentration for n% inhibition. A number after MIC or MFC names an inhibition level or a share of isolates. Conditions beyond the fields shown may differ between rows. ECn is the concentration giving n% inhibition of infection, replication or growth. Inhibition is in % at the dose shown (toxicity tests: loss of growth or viability). MIC bound: limit read from a one-dose screen. Blank or dashed fields: not listed here.

smiles | method | tested at | test | endpoint | species | strain or isolate | target | cells | result
CCOc1ccc2ccccc2c1C(=O)Nc1nnc(NCCc2cnc[nH]2)s1 |  |  | target | IC50 | Human cytomegalovirus |  | Polymerase |  | <25 µM
Oc1ccc2cn[nH]c2c1 |  |  | culture | MIC | Mycobacterium tuberculosis | H37Rv |  |  | >100 µg/mL
COCNC(=S)c1ccc(C(N)=O)nc1C(=O)NC(C)(C)C | resazurin |  | culture | MIC bound | Mycobacterium tuberculosis | H37Rv |  |  | >6.25 µg/mL
CCCN(CCC)C(=O)OCC[N+](CC)(CC)CC.[I-] |  |  | culture | MIC | Mycobacterium tuberculosis | H37Rv |  |  | >100 µg/mL
c1ccc(C2CCN(c3cncc(-c4csc5ccccc45)n3)CC2)cc1 |  |  | target | IC50 | Cytomegalovirus |  | UL97 kinase |  | <100 µM
CC(=O)OCc1cccc2ccccc12 |  |  | culture | MIC | Mycobacterium tuberculosis | H37Rv |  |  | >100 µg/mL
CC(=O)OC[C@@H](OC(C)=O)[C@@H](OC(C)=O)[C@H](OC(C)=O)[C@@H](OC(C)=O)[C@@H](OC(C)=O)[C@H](OC(C)=O)C(N)=O | resazurin |  | culture | MIC bound | Mycobacterium tuberculosis | H37Rv |  |  | >6.25 µg/mL
Cc1ccc(N2CCN(c3cncc(-c4ccc(F)c(Cl)c4)n3)CC2)cc1C |  | 10 µM | target | inhibition | Cytomegalovirus |  | UL97 kinase |  | >15%
COc1ccccc1C(=O)Nc1nnc(NC2CCCc3ccccc32)s1 |  |  | target | IC50 | Human cytomegalovirus |  | Polymerase |  | >25 µM
Nc1ccc(S(=O)(=O)O)cc1 | cytopathic effect | 10 µg/mL | culture | inhibition | Herpes simplex virus |  |  | Human amnion AV3 cells | 10%
O=C(/C=C/c1cccc(I)c1)c1ccccc1O |  |  | culture | EC50 | Mycobacterium tuberculosis | H37Rv |  |  | <12.5 µg/mL
NS(=O)(=O)c1ccc(NC(=O)C(=O)C(O)C(O)C(O)CO)cc1 | resazurin |  | culture | MIC bound | Mycobacterium tuberculosis | H37Rv |  |  | >6.25 µg/mL
CCCCCCCCCCCNc1nnc(NC(=O)c2ccc(C#N)cc2)s1 |  |  | target | IC50 | Human cytomegalovirus |  | Polymerase |  | <25 µM
CC12CCC(C(=O)C1=O)C2(C)C |  |  | culture | MIC | Mycobacterium tuberculosis | H37Rv |  |  | 50 µg/mL
CC(C)C1=CC2=CCC3C(C)(COC(=O)COc4ccccc4)CCCC3(C)C2CC1 | BACTEC | 12.5 µg/mL | culture | inhibition | Mycobacterium tuberculosis | H37Rv |  |  | 87%
O=[N+]([O-])c1ccc(CSSCc2ccc([N+](=O)[O-])cc2)cc1 |  |  | culture | MIC | Mycobacterium tuberculosis | H37Rv |  |  | 100 µg/mL
CC(=O)N/N=C(\N)c1nc2c(n3nc(C)nc13)CCCC2 | BACTEC |  | culture | MIC | Mycobacterium tuberculosis | H37Rv |  |  | ≥12.5 µg/mL
O=S(=O)([O-])c1ccc2c(S(=O)(=O)[O-])cc(S(=O)(=O)[O-])cc2c1 | cytopathic effect | 10 µg/mL | culture | inhibition | Herpes simplex virus |  |  | Human amnion AV3 cells | 0%
O=C(O)CCSc1nc2ccccc2s1 |  |  | culture | MIC | Mycobacterium tuberculosis | H37Rv |  |  | 25 µg/mL
CCCCCCCC/C=C/CCCCCCCC(=O)Nc1nnc(NCC(c2ccccc2)c2ccccc2)s1 |  |  | target | IC50 | Human cytomegalovirus |  | Polymerase |  | <25 µM
CCCC/C(C)=N/NC(=S)SC |  |  | culture | MIC | Mycobacterium tuberculosis | EMB-R |  |  | 6.4 µg/mL
Fc1ccc(N2CCCCC2)c(NC(=S)c2ccncc2)c1 | kinase activity | 10 µM | host protein | inhibition |  |  | Fms |  | 6%
CC(=O)Nc1cccc(/C=C/C(=O)c2ccccc2O)c1 |  | 12.5 µg/mL | culture | inhibition | Mycobacterium tuberculosis |  |  |  | 0%
OCc1cccc(-c2cncc(N3CCN(c4ccncc4)CC3)n2)c1 |  | 10 µM | target | inhibition | Cytomegalovirus |  | UL97 kinase |  | >15%
O=C1CC(c2ccccc2)Oc2ccc(Cl)cc21 |  | 12.5 µg/mL | culture | inhibition | Mycobacterium tuberculosis |  |  |  | 30%
Cc1cc(-c2ccc(N=Nc3ccc4c(S(=O)(=O)O)cc(S(=O)(=O)O)c(N)c4c3O)c(C)c2)ccc1N=Nc1ccc2c(S(=O)(=O)O)cc(S(=O)(=O)O)c(N)c2c1O | cytopathic effect | 50 µg/mL | culture | inhibition | Adenovirus | TYPE 3 |  | Human amnion AV3 cells | 0%
CCCOC(=O)/C=C/C(=O)N1CC(C)N(C(=O)/C=C/C(=O)OCCC)CC1C | BACTEC |  | culture | MIC | Mycobacterium tuberculosis | H37Rv |  |  | ≥12.5 µg/mL
O=C(Nc1nnc(NCCCCc2ccccc2)s1)c1ccc2c(c1)C(=O)OC2=O |  |  | target | IC50 | Human cytomegalovirus |  | Polymerase |  | <25 µM
O=S(=O)([O-])c1cccc(O)c1 | cytopathic effect | 50 µg/mL | culture | inhibition | Herpes simplex virus |  |  | Human amnion AV3 cells | 45%
Cc1ccccc1NC(=O)C1C2C=CC(O2)C1C(=O)O | BACTEC |  | culture | MIC bound | Mycobacterium tuberculosis | H37Rv |  |  | >12.5 µg/mL
CC1Cc2ccccc2/C1=N\NC(N)=O |  |  | culture | MIC | Mycobacterium tuberculosis | H37Rv |  |  | >100 µg/mL
Cc1nc2c(cc1C(=O)N/N=C/c1ccc([N+](=O)[O-])cc1)c(=O)n(C)c(=O)n2C | resazurin |  | culture | MIC bound | Mycobacterium tuberculosis | H37Rv |  |  | >6.25 µg/mL
O=C1C2CCCC2C(=O)N1c1ccccc1 |  |  | culture | MIC | Mycobacterium tuberculosis | H37Rv |  |  | >100 µg/mL
C[C@H](Cc1ccc(O)c(O)c1)[C@@H](C)Cc1ccc(O)c(O)c1 | broth dilution |  | culture | MIC100 | Candida albicans | ATCC 10231 |  |  | 250 µg/mL
C#CC[C@@H](C(=O)N[C@H](/C=C/C(=O)OCC)C[C@@H]1CCNC1=O)n1cccc(NC(=O)c2cc(C)on2)c1=O | cytopathic effect / XTT |  | culture | EC50 | Rhinovirus | Serotype 10 |  | H1-HELA | 0.042 µM
C/C(=N/NC(=S)NCc1ccccc1)c1nccnc1C | BACTEC |  | culture | MIC | Mycobacterium tuberculosis | H37Rv |  |  | 3.13 µg/mL
O=[N+]([O-])c1ccc(C[n+]2ccccc2)cc1 |  |  | culture | MIC | Mycobacterium tuberculosis | H37Rv |  |  | >100 µg/mL
NNC(=O)c1nnc(NN)[nH]c1=O | BACTEC |  | culture | MIC | Mycobacterium tuberculosis | H37Rv |  |  | ≥12.5 µg/mL
COc1ccc(/C=C/C(=O)c2cc(Br)ccc2O)cc1 |  |  | culture | EC50 | Mycobacterium tuberculosis | H37Rv |  |  | >12.5 µg/mL
CNc1ccccc1 |  |  | culture | MIC | Mycobacterium tuberculosis | H37Rv |  |  | >100 µg/mL
CN1c2ccc(C=O)cc2Sc2cc(C=O)ccc21 | BACTEC | 12.5 µg/mL | culture | inhibition | Mycobacterium tuberculosis | H37Rv |  |  | 93%
CN(CC(=O)c1ccccc1)c1ccccc1 |  |  | culture | MIC | Mycobacterium tuberculosis | H37Rv |  |  | 25 µg/mL
CCO/N=C/c1ccc(OCCC2CCN(c3ccc(C)nn3)CC2)cc1 | neutral red |  | culture | EC50 | Rhinovirus | Baylor 3 (LDL receptor group 47) |  | KB | 0.117 µM
Cc1[nH]nc(-c2cccnc2)c1N=NN(C)C | resazurin |  | culture | MIC bound | Mycobacterium tuberculosis | H37Rv |  |  | <6.25 µg/mL
O=C(Nc1ccc(Cl)c2c1C(=O)c1ccccc1C2=O)c1ccccc1 |  |  | culture | MIC | Mycobacterium tuberculosis | H37Rv |  |  | >100 µg/mL
Cc1cc(-c2ccc(N=Nc3c(N)c(S(=O)(=O)O)cc4cc(S(=O)(=O)O)ccc34)c(C)c2)ccc1N=Nc1c(N)ccc2cc(S(=O)(=O)O)ccc12 | cytopathic effect | 50 µg/mL | culture | inhibition | Herpes simplex virus |  |  | Human conjunctiva cells | 100%
CNC(=O)OCc1nn(-c2ccc(Cl)c(Cl)c2)c(C)c1COC(=O)NC |  | 6.25 µg/mL | culture | inhibition | Mycobacterium tuberculosis | H37Rv |  |  | -2%
O=c1cc(-c2ccc(Oc3c(O)cc4oc(-c5ccc(O)cc5)cc(=O)c4c3O)cc2)oc2cc(O)cc(O)c12 |  |  | culture | EC50 | Mycobacterium tuberculosis |  |  |  | >12.5 µg/mL
CCCCCCCC/C=C/CCCCCCCC(=O)Nc1nnc(NCc2cccs2)s1 |  |  | target | IC50 | Human cytomegalovirus |  | Polymerase |  | <25 µM
CC(=O)Nc1ccc(S(=O)(=O)Cl)cc1 |  |  | culture | MIC | Mycobacterium tuberculosis | H37Rv |  |  | >100 µg/mL
C[N+](C)(C)[N-]C(=N)c1ccccc1 | BACTEC | 12.5 µg/mL | culture | inhibition | Mycobacterium tuberculosis | H37Rv |  |  | 0%
O=C(Nc1c(S(=O)(=O)[O-])cc2cc(S(=O)(=O)[O-])cc(O)c2c1O)c1ccccc1 | cytopathic effect | 50 µg/mL | culture | inhibition | Herpes simplex virus |  |  | Human amnion AV3 cells | 0%
CC(=N/O)/C(C)=N\O | BACTEC | 12.5 µg/mL | culture | inhibition | Mycobacterium tuberculosis | H37Rv |  |  | -2%
COc1ccc(C2Oc3cc(F)ccc3C(=O)C2O)cc1 |  | 12.5 µg/mL | culture | inhibition | Mycobacterium tuberculosis | H37Rv |  |  | 50%
Cl.Nc1nc(N)nc(Nc2ccccc2)n1 |  |  | culture | MIC | Mycobacterium tuberculosis | H37Rv |  |  | >100 µg/mL
COc1ccc([C@@H]2CC(=O)c3c(OC)cc(OC)c([C@H]4C(=O)c5c(OC)cc(OC)cc5O[C@@H]4c4ccc(OC)cc4)c3O2)cc1 |  |  | culture | EC50 | Mycobacterium tuberculosis |  |  |  | <12.5 µg/mL
O=P(Nc1ccccc1)(Nc1ccccc1)Nc1ccccc1 |  |  | culture | MIC | Mycobacterium tuberculosis | H37Rv |  |  | 100 µg/mL
c1ccc(C2CCN(c3cncc(-c4ccc5ccccc5c4)n3)CC2)cc1 |  | 1 µM | target | inhibition | Cytomegalovirus |  | UL97 kinase |  | <50%
COc1ccccc1C(=O)CC(=O)Nc1cccc(NC(=O)C(C)Oc2ccc(C(C)(C)C)cc2)c1 |  |  | culture | MIC | Mycobacterium tuberculosis | H37Rv |  |  | >100 µg/mL
O=C1ONN(c2ccccc2)/C1=C\N=Nc1ncnc2nc[nH]c12 | BACTEC | 12.5 µg/mL | culture | inhibition | Mycobacterium tuberculosis | H37Rv |  |  | 0%
CCOC(=O)CNN |  |  | culture | MIC | Mycobacterium tuberculosis | H37Rv |  |  | 50 µg/mL
O=C1CC(SC(=S)N2CCOCC2)C(=O)N1 |  |  | culture | MIC | Mycobacterium tuberculosis | PAS-R |  |  | 3.2 µg/mL
CCOC(=O)c1cc(-c2ccccn2)nc2ccccc12 |  |  | culture | MIC | Mycobacterium tuberculosis | H37Rv |  |  | >100 µg/mL
O=C(NCCO)c1cccc(-c2cncc(N3CCN(c4ccncc4)CC3)n2)c1 |  |  | target | IC50 | Cytomegalovirus |  | UL97 kinase |  | <100 µM
[Cl-].[Cl-].c1ccc([P+](Cc2ccc(C[P+](c3ccccc3)(c3ccccc3)c3ccccc3)cc2)(c2ccccc2)c2ccccc2)cc1 | BACTEC | 12.5 µg/mL | culture | inhibition | Mycobacterium tuberculosis | H37Rv |  |  | 74%
CCCCCCc1cc(O)c2c(c1)oc(=O)c1ccc(C)cc12 |  |  | culture | MIC | Mycobacterium tuberculosis | H37Rv |  |  | >100 µg/mL
O=C1CN(Cc2ccccc2)CC(=O)N2Cc3ccccc3CN12 | BACTEC | 12.5 µg/mL | culture | inhibition | Mycobacterium tuberculosis | H37Rv |  |  | 25%
O=C(O)c1ccc2ccccc2c1O |  |  | culture | MIC | Mycobacterium tuberculosis | H37Rv |  |  | 50 µg/mL

9 of the rows above, restated:

smiles	method	tested at	test	endpoint	species	strain or isolate	target	cells	result
CC1Cc2ccccc2/C1=N\NC(N)=O			culture	MIC	Mycobacterium tuberculosis	H37Rv			>100 µg/mL
COc1ccc(C2Oc3cc(F)ccc3C(=O)C2O)cc1		12.5 µg/mL	culture	inhibition	Mycobacterium tuberculosis	H37Rv			50%
CCO/N=C/c1ccc(OCCC2CCN(c3ccc(C)nn3)CC2)cc1	neutral red		culture	EC50	Rhinovirus	Baylor 3 (LDL receptor group 47)		KB	0.117 µM
CC(=O)N/N=C(\N)c1nc2c(n3nc(C)nc13)CCCC2	BACTEC		culture	MIC	Mycobacterium tuberculosis	H37Rv			≥12.5 µg/mL
O=C(/C=C/c1cccc(I)c1)c1ccccc1O			culture	EC50	Mycobacterium tuberculosis	H37Rv			<12.5 µg/mL
CC(C)C1=CC2=CCC3C(C)(COC(=O)COc4ccccc4)CCCC3(C)C2CC1	BACTEC	12.5 µg/mL	culture	inhibition	Mycobacterium tuberculosis	H37Rv			87%
Fc1ccc(N2CCCCC2)c(NC(=S)c2ccncc2)c1	kinase activity	10 µM	host protein	inhibition			Fms		6%
c1ccc(C2CCN(c3cncc(-c4csc5ccccc45)n3)CC2)cc1			target	IC50	Cytomegalovirus		UL97 kinase		<100 µM
CCCCCCCC/C=C/CCCCCCCC(=O)Nc1nnc(NCc2cccs2)s1			target	IC50	Human cytomegalovirus		Polymerase		<25 µM